This note sets out measurements from patent publication US10596272B2, “Vaccines against Streptococcus pneumoniae serotype 5” (dated 2020).

The test system of assay [1] is IgG of pooled sera of humans who had received a pneumococcal CPS-based vaccine. Put plainly: Glycan microarray screening with pooled sera of human pneumococcal CPS vaccine recipients. To be noted: for IgG of immunized humans against the synthetic glycan: human pneumococcal serum dilution 1:100, FIG. 5A.
In assay [2] the test system is antibodies produced during immunization. In words: Recognition of reference substructures by antibodies produced during immunization. To be noted: substructures of SP5 CPS without pneumosamine.
Assay [3] relates to ST5 type sera raised in rabbit. Put plainly: Glycan microarray II with ST5 type sera. To be noted: rabbit type 5 sera, dilution 1 in 100; FIG. 8B.
Assay [4] concerns structures printed on slides and native polysaccharide. To be noted: as CRM197 conjugates 58*c and 87*.
The subject of assay [5] is anti-SP5 specific typing sera IgG. In words: Glycan microarray screening with commercial anti-SP5 specific rabbit typing serum. To be noted: rabbit typing serum dilution 1:1000; FIG. 4A.
Assay [6] relates to CSP-5 polysaccharide. Put plainly: ELISA end point titer of sera of rabbits immunized with ST5 glycan conjugates. To be noted: day 35; compared to tetrasaccharide 33* or conjugate 58*c.

On to `CC(=O)NC1C(O)[C@H](O)C(C)O[C@H]1OCCCCCN` (stereo partly shown), for which the “IgG of immunized humans against the synthetic glycan” value (“IgG of immunized humans” for short) in assay [1] was “very low levels”.

Consider `CC(=O)NC1C(O[C@@H]2OC(C(=O)O)[C@@H](O)C(O)C2O)C(O[C@@H]2OC(CO)[C@@H](O)C(O)C2O)[C@H](C)O[C@H]1OC1C(NC(C)=O)[C@H](OCCCCCN)OC(C)[C@@H]1O` (stereo partly shown), for which the “recognition by the antibodies produced during immunization” value in assay [2] is listed as “not recognized”.

`CC(=O)NC1C(O)[C@@H](O)C(C)O[C@H]1OCN` (stereo partly shown): in assay [1], the “IgG of immunized humans” value is “not detected at all”.

`CC(=O)NC1C(O)[C@H](O)C(C)O[C@H]1OC1C(NC(C)=O)[C@H](OCN)OC(C)[C@@H]1O` (stereo partly shown): in assay [1], the “IgG of immunized humans” value was “low levels”.

As for `CC(=O)NC1[C@@H](OCCCCCN)OC(C)[C@@H](O)[C@@H]1O` (stereo partly shown), the “IgG of immunized humans” value in assay [1] is “very low levels”.

“5-amino-pentanyl β-D-glucopyranosyl-(1→3)-2-N-acetyl-α-L-fucosaminopyranoside”: the “IgG of immunized humans” value in assay [1] is recorded as “very low levels”.

On to `CC(=O)NC1C(O[C@@H]2OC(C)[C@@H](O)C(O)C2NC(C)=O)C(=O)C(C)O[C@H]1OCN` (stereo partly shown), for which, in assay [1], the “IgG of immunized humans” value is on record as “very low levels”.

As for `CC(=O)NC1C(O[C@@H]2OC(C(=O)O)[C@@H](O)C(O)C2O)C(O[C@@H]2OC(CO)[C@@H](O)C(O)C2O)[C@H](C)O[C@H]1OCCCCCN` (stereo partly shown), in assay [2], the “recognition by the antibodies produced during immunization” value is “not recognized”.

`CC(=O)NC1C(O)[C@H](O)C(C)O[C@H]1OC1C(O)[C@H](O)C(C(=O)O)O[C@H]1OC1C(NC(C)=O)[C@H](OC2C(NC(C)=O)[C@H](OCN)OC(C)[C@@H]2O)OC(C)[C@H]1O` (stereo partly shown): in assay [3], the “recognition by ST5 type sera” value is recorded as “high affinity”. In addition, in assay [1] (SP5 CPS 5 μg/mL, FIG. 5B), the “anti-glycan IgG levels after pre-incubation of human sera with natural SP5 CPS” value is “significant reduction”. Also, the “IgG of immunized humans” value in assay [1] is given as “predominantly”. Moreover, in assay [4], the immunogenicity in rabbit result was “immunogenic”. In addition, in assay [5], the “binding of printed glycan by specific anti-SP5 IgG” value (from here on “binding of printed glycan”) is on record as “bound by specific anti-SP5 IgG”; the “level of IgG binding, 33* and 27* compared with each other” value is “comparable levels”.

For `CC(=O)NC1[C@H](OCCCCCN)OC(C)[C@@H](O)[C@@H]1O` (stereo partly shown), the “IgG of immunized humans” value in assay [1] was “lower levels”. In addition, the “binding of printed glycan” value in assay [5] is on record as “bound by specific anti-SP5 IgG”.

On to `CC(=O)NC1[C@H](OC2[C@H](O[C@@H]3C(NC(C)=O)[C@H](O[C@@H]4C(NC(C)=O)[C@H](OCCCCCN)OC(C)[C@H]4O)OC(C)[C@H]3O[C@@H]3OC(CO)[C@@H](O)[C@H](O)C3O)OC(C(=O)O)[C@@H](O)[C@@H]2O)OC(C)[C@@H](O)[C@@H]1O` (stereo partly shown), for which the “recognition by ST5 type sera” value in assay [3] is reported as “high affinity”.

For “5-amino-pentanyl β-D-glucopyranosyluronate-(1→4)-2-N-acetyl-α-L-fucosaminopyranoside”, the “IgG of immunized humans” value in assay [1] is given as “low levels”.

In the case of `CC(=O)NC1C(O)[C@H](O)C(C)O[C@H]1OC1C(O)[C@H](O)C(C(=O)O)O[C@H]1OCN` (stereo partly shown), the “IgG of immunized humans” value in assay [1] is “lower levels”. In addition, in assay [5], the “binding of printed glycan” value is given as “bound by specific anti-SP5 IgG”; the “level of IgG binding, 33* and 27* compared with each other” value is recorded as “comparable levels”.

`CC(=O)NC1C(O)C(=O)C(C)O[C@H]1OCN` (stereo partly shown): the “IgG of immunized humans” value in assay [1] is on record as “not detected at all”.

As for `CC(=O)NC1[C@H](OC2[C@H](O[C@@H]3C(NC(C)=O)[C@H](O[C@@H]4C(NC(C)=O)[C@H](OCCCCCN)OC(C)[C@@H]4O)OC(C)[C@H]3O[C@@H]3OC(CO)[C@@H](O)[C@H](O)C3O)OC(C(=O)O)[C@@H](O)[C@@H]2O)OC(C)[C@@H](O)[C@@H]1O` (stereo partly shown), the “recognition by ST5 type sera” value in assay [3] is on record as “high affinity”. The immunogenicity in rabbit entry in assay [4] is “immunogenic”. Besides, the “immunogenicity compared between groups (antibody response as fold change)” value in assay [6] is on record as “more immunogenic”.
